What all share (assay): pseudovirus neutralization IC50; higher = weaker neutralization
Assay [1] concerns the target SARS-CoV-2 Omicron BA.1 spike pseudovirus. The method, then: (§1)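 Single-round VSV luciferase pseudovirus mixed with antibody dilutions for 1 h and put on Huh-7 cells for about a day; IC50 from the dose curve.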
Assay [2] deals with SARS-CoV-2 Omicron BA.2 spike pseudovirus. The method, then:
as §1

Assay [3] has as its target SARS-CoV-2 Omicron BA.2.75 spike pseudovirus. The method, then: as §1
In assay [4] the target is SARS-CoV-2 Omicron BA.5 spike pseudovirus. The method, then: as §1
The target in assay [5] is SARS-CoV-2 Omicron BQ.1.1 spike pseudovirus. The method, then:
as §1

Assay [6] addresses SARS-CoV-2 Omicron XBB spike pseudovirus. On the procedure:
as §1

In assay [7] the target is SARS-CoV-2 early D614G spike pseudovirus. On the procedure: as §1

Six molecules from the supplement of paper PMC9931576 can be followed below.

Human monoclonal antibodies against the spike receptor-binding domain (heavy:light variable regions). IC50 against pseudoviruses bearing the spike of naturally observed variants; lower = stronger; >10 µg/ml means not reached at the top dose. No active / inactive call. The stated detection limit is 0.0005 µg/ml; values near or below 0.001 µg/ml lie at the floor of the assay.

B1: BD56-427 (protein)
chain 1: QVQLVQSGSELKKPGASVKVSCKASGYTFLNYAMNWVRQAPGQGLEWMGWINTNTGNPTYAQGFTGRFVFSLDTSVSTAYLQISSLKAEDTAVYYCARIGARDSSSWLDDAFDIWGQGTMLTVSS
chain 2: DIVMTQSPDSLAVSLGERATINCKSSHSVLYSSNNQNFLAWYQQKPGQTPKLLIYWASTRESGVPDRFSGSGSGTDFTLTISSLQAEDVAVYYCQQYYSTPLTFGGGTKVEIK
Regarding B1, the “pseudovirus neutralization IC50” value in assay [1], in assay [2], in assay [3], in assay [4], in assay [5] and in assay [6] was greater than 10 mg/L each time. Moreover, the “pseudovirus neutralization IC50” value in assay [7] was 0.0105 mg/L.

B2: BD56-428 (protein)
chain 1: QGQLVQSGPEVKKPGTSVKVSCKASRFTFTTSAVQWVRQARGQRLEWIGWIAPGSTKIDYAQKFQDRVTMTRDMSTSTAYMELSSLRSEDTAMYYCAAPYCSGGRCLDGFDIWGQGTMVTVSS
chain 2: EIVLTQSPGTLSLSPGDRATLSCRASQTISRSYLAWYQQKGGQAPRLLIYGVSSRATGIPDRFSGSGSGTDFTLTIGRLQPEDFAVYYCQQYGTSPWTFGQGTKVEMK
With B2, the “pseudovirus neutralization IC50” value is 0.00374 mg/L in assay [1]; 0.00205 mg/L in assay [2]; 0.00233 mg/L in assay [3]; 1.07 mg/L in assay [4]; 1.14 mg/L in assay [5]; greater than 10 mg/L in assay [6]. For the same molecule, the “pseudovirus neutralization IC50” value in assay [7] worked out at 0.00138 mg/L.

B3: BD56-419 (protein)
chain 1: QITLKESGPTLVKPTQTLTLTCTFSGFSLTTSGVGVGWIRQPPGKALEWLALIYWDEDKRYSPSLKSRLTITKDTSKNQVVLTMNNMDPVDTATYYCAHHTIPTIYDYWGQGTLVTVSS
chain 2: QSALTQPASVSGSPGQSITISCTATSSDVGAYNYVSWYQQHPGKAPKLMIYDVSKRPSGVSDRFSGSKSGNTASLTISGLQAEDEADYYCSSYTTTSTVFGGGTKLTVL
For B3, the “pseudovirus neutralization IC50” value in assay [1] is 0.146 mg/L; in assay [2], 0.00765 mg/L; in assay [3], 0.251 mg/L; in assay [4], 0.00969 mg/L; in assay [5], greater than 10 mg/L; in assay [6], greater than 10 mg/L. Further, in assay [7], the “pseudovirus neutralization IC50” value stood at 0.00241 mg/L.

B4: BD56-431 (protein)
chain 1: EVQLVESGGGLIQPGGSLRLSCAASGFTVSSSYMNWVRQGPGKGLEWVSVIYTGGTTYYADSVKGRFTISRDNSKNALYLQMNSLRVDDTALYYCARGQQEGWLQSGGFDIWGQGTMVTVSS
chain 2: QSALTQPPSASGSPGQSVNISCTGTSSDVGGSNYVSWYQQHPDKAPKLILSEVSKRPSGVPDRFSGSKSGNTASLTVSGLQAEDEADYFCSSYAGHHNFVFGTGTKVTVL
Take B4: the “pseudovirus neutralization IC50” value in assay [1] was 0.00243 mg/L; in assay [2], 0.00212 mg/L; in assay [3], 0.00189 mg/L; in assay [4], greater than 10 mg/L; in assay [5] it was greater than 10 mg/L; in assay [6], greater than 10 mg/L. Besides, in assay [7], the “pseudovirus neutralization IC50” value was determined as 0.00134 mg/L.

B5: BD56-433 (protein)
chain 1: EVHLEESGGGLVKPGGSLRLSCAASGFAFITYTMNWVRQSPGKGLEWVSSISSSGRYIYYADSVKGRFTISRDNDENSLYLQMNSLRAEDTAVYYCARVGAREDREWELRGAYLDVWGKGTTVSVSS
chain 2: EIVLTQSPGTLSLSPGERATLSCRASQTLSSNSLAWYQQKPGQAPRLLIFGASTRATGIPDRVSGSGSGTDFTLTISRLEPEDFAVYYCQRYGNSAPITFGQGTRLEIK
With B5, the “pseudovirus neutralization IC50” value in assay [1] was 0.454 mg/L; in assay [2] it was 0.305 mg/L; in assay [3], 0.281 mg/L; in assay [4] it was greater than 10 mg/L; in assay [5], greater than 10 mg/L; in assay [6], greater than 10 mg/L. The “pseudovirus neutralization IC50” value in assay [7] came out at 0.001 mg/L.

B6: BD56-436 (protein)
chain 1: QVQLVESGGGVVQPGRSLRLSCVASGFSFRSYAMHWVRQAPGKGLEGVAVIWNDGSNKNYADSVKGRFTISRDNSKNTLYLQMNSLKAEDTAVYYCAREGISIAAGGDDAFDIWGQGTMVTVSS
chain 2: DIQMTQSPSSLSASAGDTVTITCRASQSVSSFLNWYQQTPGKAPKLLIYAASSLQSGVPSRFSGGGSGTDFTLTISSLQPEDFATYYCQQSYNAPYTFGQGTKLDIK
For B6, the “pseudovirus neutralization IC50” value in assay [1] was 0.0143 mg/L; in assay [2], 0.00734 mg/L; in assay [3] it was 0.0115 mg/L; in assay [4] it was 5.04 mg/L; in assay [5] it was greater than 10 mg/L; in assay [6], 0.131 mg/L. Further, the “pseudovirus neutralization IC50” value in assay [7] is 0.00434 mg/L.
